{
  "sequences": {"note": "Amino acid sequences for entries named in this document (tags omitted). A change or cut given only in a name is not applied to a line headed by its entry.", "UniProt P04296": "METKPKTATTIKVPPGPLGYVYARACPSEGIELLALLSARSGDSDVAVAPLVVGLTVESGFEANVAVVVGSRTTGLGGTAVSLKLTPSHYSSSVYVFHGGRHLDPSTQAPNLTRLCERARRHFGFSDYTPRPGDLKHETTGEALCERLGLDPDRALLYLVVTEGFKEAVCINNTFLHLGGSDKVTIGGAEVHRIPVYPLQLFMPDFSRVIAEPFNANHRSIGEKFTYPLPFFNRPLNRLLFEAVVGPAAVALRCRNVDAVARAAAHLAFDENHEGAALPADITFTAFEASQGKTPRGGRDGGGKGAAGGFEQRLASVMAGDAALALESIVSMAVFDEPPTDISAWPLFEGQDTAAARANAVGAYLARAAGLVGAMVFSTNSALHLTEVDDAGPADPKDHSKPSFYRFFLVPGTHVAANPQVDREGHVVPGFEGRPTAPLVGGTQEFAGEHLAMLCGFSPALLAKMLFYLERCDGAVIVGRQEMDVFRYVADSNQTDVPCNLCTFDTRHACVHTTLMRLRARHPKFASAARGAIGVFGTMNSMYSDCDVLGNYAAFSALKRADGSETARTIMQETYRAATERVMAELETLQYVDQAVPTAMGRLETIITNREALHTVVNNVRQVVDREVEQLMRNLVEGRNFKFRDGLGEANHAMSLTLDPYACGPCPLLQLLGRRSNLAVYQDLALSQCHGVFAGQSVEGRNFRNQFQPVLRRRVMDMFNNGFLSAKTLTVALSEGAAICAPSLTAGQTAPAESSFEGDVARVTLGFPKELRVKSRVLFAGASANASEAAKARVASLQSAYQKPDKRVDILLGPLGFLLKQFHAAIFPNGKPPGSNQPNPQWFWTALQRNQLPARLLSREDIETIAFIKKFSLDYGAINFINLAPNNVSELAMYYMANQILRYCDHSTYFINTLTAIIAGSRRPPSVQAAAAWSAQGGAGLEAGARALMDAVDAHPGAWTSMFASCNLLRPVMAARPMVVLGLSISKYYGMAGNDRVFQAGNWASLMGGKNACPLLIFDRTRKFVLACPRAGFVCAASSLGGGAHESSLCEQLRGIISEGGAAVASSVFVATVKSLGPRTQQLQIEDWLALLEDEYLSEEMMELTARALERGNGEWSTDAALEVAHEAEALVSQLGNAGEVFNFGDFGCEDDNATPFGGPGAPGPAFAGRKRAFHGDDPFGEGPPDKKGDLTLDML"},
  "source": "paper PMC8787488",
  "about": "“Two-Metal Ion-Dependent Enzymes as Potential Antiviral Targets in Human Herpesviruses” (mBio, 2022)",
  "target": "ICP8 (Herpes simplex virus 1) (UniProt P04296)",
  "experiment": "EMSA",
  "details": "DMSO control, 5 mM Mg2+; 20 mM Tris-HCl pH 7.5, 4% glycerol, 0.1 mg/mL BSA, 0.5 mM DTT, 5 mM MgCl2, […], binding 30 min at room temperature ([…]) or 37 C ([…]; recombinant protein; single-stranded DNA",
  "note": "For at least one entry, the source does not settle the construct or the ends of the probe. At least one verdict rests on a figure or table, not on a statement of the authors.",
  "data": [
    {"sequence": "TTTTTTTTTTTTTTTTTTTTTTTTT [Cy5-dT25]", "values": [
      {"measurement": "binding result", "result": "binds"}
    ]}
  ]
}
